PubChem BioAssay AID1259414 – Drosophila RNAi Screening Center | 2018
Aim: 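Host factors increasing or decreasing Wolbachia levels in cultured fly cells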 (primary screen). Cell system: Drosophila JW18 cells infected with Wolbachia. Reagents: long dsRNA against Drosophila genes, 0.25 µg dsRNA per well of a 384-well plate. Timing: 5 days. Challenge: cells persistently infected with Wolbachia before knock-down; no added drug. Measured: 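Imaged fluorescence in situ signal for Wolbachia 23S rRNA per DAPI-counted host cell, given as a robust z-score within each plate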. Scale: Wolbachia per cell robust z: higher = more Wolbachia per host cell than the plate typical. Call rule: 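Active if absolute robust z reaches 1.5 in two or more of three replicates, leaving out multi- or no-target dsRNAs, genes unexpressed in JW18 and A1 wells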.
The deposit covers about 24,000 reagents; below is an unselected part of those with a known target gene and a result. Over the whole deposit, about 1,210 (5%) got an active call. 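Inactive calls also include excluded dsRNAs with several or no targets, genes unexpressed in JW18, and well A1, regardless of score.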 A plus sign joins genes that one reagent is predicted to hit.

no.	target	dsRNA	Wolbachia per cell robust z, rep 1	Wolbachia per cell robust z, rep 2	Wolbachia per cell robust z, rep 3	outcome
1	CG13721	DRSC08330	-0.702	1.14	0.77	inactive
2	dUTPase (Deoxyuridine triphosphatase)	DRSC01998	0.285	-1.63	-0.994	inactive
3	dUTPase (Deoxyuridine triphosphatase)	DRSC29469	1.08	0.668	1.25	inactive
4	CG32017	DRSC17183	-8.41	-8.4	0.242	active
5	CG5126	DRSC00680	-1.02	-0.309	0.554	inactive
6	128up (upstream of RpIII128)	DRSC05027	1.62	0.263	1.61	active
7	128up (upstream of RpIII128)	DRSC24366	-2.76	-4.71	-8.37	inactive
8	CG2747	DRSC15450	0.537	0.025	-2.5	inactive
9	CG7378	DRSC20041	1.55	0.531	0.404	inactive
10	Mink (Mitotic spindle and nuclear protein)	DRSC14291	-0.782	-1.35	-1.83	inactive
11	lgs (legless)	DRSC17152	1.33	0.376	-0.448	inactive
12	Ets96B	DRSC16127	-2.94	-0.135	0.397	inactive
13	Ets96B	DRSC27110	-5.36	0.569	1.03	inactive
14	Scamp	DRSC20286	0.933	0.437	0.0934	inactive
15	Scamp	DRSC29752	-8.9	0.424	-2.99	active
16	Non2 (Novel nucleolar protein 2)	DRSC08272	-0.627	-2.14	1.35	inactive
17	Non2 (Novel nucleolar protein 2)	DRSC25342	-0.153	0.761	-0.18	inactive
18	CG33978	DRSC38804	0.435	1.1	0.546	inactive
19	CG3163	DRSC04341	-0.167	-0.0123	0.258	inactive
20	CG3163	DRSC28242	-1.97	-0.592	-1.62	active
21	p38b (p38b MAP kinase)	DRSC03586	0.3	0.00808	0.268	inactive
22	CG12446	DRSC20618	0.704	0.282	0.302	inactive
23	CkIIalpha (casein kinase IIalpha)	DRSC11946	0.846	0.161	1.72	inactive
24	CkIIalpha (casein kinase IIalpha)	DRSC40838	-1.04	-0.808	-1.32	inactive
25	vari (varicose)	DRSC03202	0.736	-4.86	-0.161	inactive
26	CG17321	DRSC02598	-0.028	0.312	-1.59	inactive
27	CG17321	DRSC25649	-0.0931	-0.216	0.72	inactive
28	Fur1 (Furin 1)	DRSC13707	0.0126	0.0565	0.625	inactive
29	Fur1 (Furin 1)	DRSC16676	1.72	0.622	2.16	active
30	Fur1 (Furin 1)	DRSC40739	0.765	0.365	1.32	inactive
31	Prx3 (Peroxiredoxin 3)	DRSC15883	0.715	0.0852	0.6	inactive
32	Prx3 (Peroxiredoxin 3)	DRSC29107	-0.563	-0.815	-0.957	inactive
33	Dhpr (Dihydropteridine reductase)	DRSC11135	-0.000715	-1.07	-0.981	inactive
34	Ir75c (Ionotropic receptor 75c)	DRSC10190	-0.385	-0.561	-0.263	inactive
35	CG11537	DRSC08200	0.616	0.768	0.43	inactive
36	CG32726	DRSC17521	0.137	0.482	0.277	inactive
37	CG32726	DRSC41486	0.0518	-1.93	0.335	inactive
38	CG4783	DRSC15644	1.14	-0.653	0.917	inactive
39	CG1603	DRSC06602	1.36	-1.19	-2.08	inactive
40	CG1603	DRSC27982	-1.26	0.776	-0.81	inactive
41	CG14837	DRSC10207	0.718	0.638	-2.31	inactive
42	CG10866	DRSC08171	0.617	0.127	-1.13	inactive
43	CG10866	DRSC29672	0.465	-0.206	0.0345	inactive
44	CG31898	DRSC01019	-0.252	-0.907	0.0829	inactive
45	CG7079	DRSC16192	-0.149	0.935	-0.582	inactive
46	CG7079	DRSC29827	-1.42	-5.38	-5.35	inactive
47	Cpr49Ae (Cuticular protein 49Ae)	DRSC07201	0.542	0.82	0.0845	inactive
48	Cpr49Ae (Cuticular protein 49Ae)	DRSC27662	0.558	-2.37	-0.869	inactive
49	CG9040	DRSC11053	-0.0327	-0.599	0.0475	inactive
50	CheB42b (Chemosensory protein B 42b)	DRSC22878	-0.429	-0.184	-2.4	inactive
51	CG14220	DRSC19577	1.28	0.974	0.754	inactive
52	CG14220	DRSC26345	0.0189	-1.67	0.267	inactive
53	ATPCL (ATP citrate lyase)	DRSC05913	-0.373	0.958	0.868	inactive
54	ATPCL (ATP citrate lyase)	DRSC27809	-1.64	0.00684	-0.208	inactive
55	Snx17 (Sorting nexin 17)	DRSC02884	-6.77	0.593	0.135	inactive
56	Snx17 (Sorting nexin 17)	DRSC28893	1.22	1.53	1.23	inactive
57	Sgt1 (suppressor-of-G2-allele-of-skp1)	DRSC16519	-4.18	0.702	0.775	inactive
58	Sgt1 (suppressor-of-G2-allele-of-skp1)	DRSC29773	-4.83	-2.45	-0.701	active
59	P5CDh1 (delta-1-Pyrroline-5-carboxylate dehydrogenase 1)	DRSC11801	0.453	-1.01	0.65	inactive
60	CG9377	DRSC03217	-0.255	0.338	0.192	inactive
61	Cdc27 (Cell division cycle 27)	DRSC11112	2.42	2.67	4.39	active
62	Cdc27 (Cell division cycle 27)	DRSC23438	4.63	2.65	2.16	active
63	Cdc27 (Cell division cycle 27)	DRSC38968	5.79	3.35	5.28	active
64	CG34297	DRSC38827	-0.294	0.317	0.519	inactive
65	Cpr65Av (Cuticular protein 65Av)	DRSC09727	-0.764	-4.23	-0.53	inactive
66	Cpr65Av (Cuticular protein 65Av)	DRSC26499	0.743	-0.0027	-0.408	inactive
67	lncRNA:CR43285 + snRNA:U1:95Cc	DRSC13640	0.98	2.33	1.99	inactive
68	CG17839	DRSC10290	1.54	-0.497	-0.5	inactive
69	CG17839	DRSC10291	-0.148	-0.981	-0.653	inactive
